Anti-infective test results gathered from many reports (values: NIAID ChemDB through PubChem).

Shared fields: whole-cell or culture tests; organism: Staphylococcus aureus; read-out: MIC

Rows are shuffled and stem from different studies.

smiles | strain or isolate | result
COc1ccc(-c2ccc(N3CC(CNC(C)=O)CC3=O)cc2)ccc1=O | UC 12673 | >64 µg/mL
O=C1O[C@@H](COc2ccon2)CN1c1ccc(N2CC[C@H](O)C2)c(F)c1 | 078 (oxford) | 2 µg/mL
CSc1ccc(C(=O)Nc2ccc(N3C[C@H](CNC(C)=O)OC3=O)cc2F)o1 | ATCC 29213 (linezolid-resistant) | >64 µg/mL
O=CNC[C@H]1CN(c2ccc3c(c2)-n2cccc2COC3)C(=O)O1 | ATCC 49951 (SMITH) | 8 µg/mL
N#Cc1cnn(-c2ccc(C3=NO[C@@H](CNC(=O)O)C3)cc2F)c1 | UC9218 | 2 µg/mL
CCN(CC)CCCCC(C)Nc1cc2c(cc1F)c(=O)c(C(=O)O)cn2C1CC1 | ATCC 5278 (methicillin-resistant) | >100 µg/mL
C=C1COC2[C@@H](C)C(=O)[C@H](C)C[C@@](C)(OC1)[C@H](O[C@@H]1O[C@H](C)C[C@H](N(C)C)[C@H]1O)[C@@H](C)C(=O)[C@@H](C)C(=O)O[C@H](CC)[C@@]2(C)O | 33591 (erythromycin methicillin-resistant) | >64 µg/mL
COCCN(CCOC)c1cc2c(cc1F)c(=O)c(C(=O)O)cn2C1CC1 | ATCC 6538P | >100 µg/mL
CO/N=C1\CN(c2nc3c(cc2F)c(=O)c(C(=O)O)cn3C2CC2)CC1CN | KU2246 | 0.125 µg/mL
CC(=O)NC[C@H]1CN(c2ccc(NC(=O)c3ccc(Br)o3)c(F)c2)C(=O)O1 | ATCC 29213 (linezolid-resistant) | >64 µg/mL
CC[C@H]1OC(=O)[C@H](C)C(=O)[C@H](C)[C@@H](O[C@@H]2O[C@H](C)C[C@H](N(C)C)[C@H]2O)[C@@]2(C)C[C@@H](C)C(=NC(C)=O)[C@H](C)C(OC/C(=N\OCC#Cc3cccc(N)n3)CO2)[C@]1(C)O | 33591 (erythromycin methicillin-resistant) | >64 µg/mL
O=C1O[C@@H](CNc2ccon2)CN1c1ccc(N2CCOCC2)c(F)c1 | 004 (methicillin quinolone-resistant) | 1 µg/mL
CCNc1c(F)cc2c(=O)c(C(=O)O)cn(-c3cc(N)c(F)cc3F)c2c1C | W806 (methicillin-resistant) | 0.25 µg/mL
CC(=O)NC[C@H]1CN(c2ccc(NC(=O)c3ccc(/C=C/[N+](=O)[O-])o3)c(F)c2)C(=O)O1 | ATCC 29213 (linezolid-resistant) | >64 µg/mL
NCCCCCCNc1cc2c(cc1F)c(=O)c(C(=O)O)cn2C1CC1 | ATCC 5278 (methicillin-resistant) | >100 µg/mL
CC(=O)NC[C@H]1CN(c2ccc(-c3noc(C(F)(F)F)n3)c(F)c2)C(=O)O1 | UC9213 (methicillin-susceptible) | 16 µg/mL
COC(=O)N1CC=C(c2ccc(C3=NO[C@@H](CNC(=O)O)C3)cc2)CC1 | UC9218 | 2 µg/mL
CC[C@H]1OC(=O)[C@H](C)C(=O)[C@H](C)[C@@H](O[C@@H]2O[C@H](C)C[C@H](N(C)C)[C@H]2O)[C@@]2(C)C[C@@H](C)C(=O)[C@H](C)C(OC/C=C/CO2)[C@]1(C)O | 27660 (erythromycin-resistant) | 2 µg/mL
CC(=O)NC[C@H]1CN(c2ccc(-c3ccsc3)c(F)c2)C(=O)O1 | UC9213 (methicillin-susceptible) | 0.5 µg/mL
O=C(O)NC[C@H]1CC(c2ccc(-n3cccc3)c(F)c2)=NO1 | UC9213 | 2 µg/mL
O=C(NC[C@H]1CN(c2ccc3c(c2)-n2cccc2COC3)C(=O)O1)C(Cl)Cl | ATCC 49951 (SMITH) | 4 µg/mL
Cc1c(NCCO)c(F)cc2c(=O)c(C(=O)O)cn(-c3cc(N)c(F)cc3F)c12 | W200 (methicillin-resistant) | 0.03 µg/mL
CC[C@H]1OC(=O)[C@H](C)C(=O)[C@H](C)[C@@H](O[C@@H]2O[C@H](C)C[C@H](N(C)C)[C@H]2O)[C@@]2(C)C[C@@H](C)C(=NC(C)=O)[C@H](C)[C@@H](OC/C(=N\Oc3ccccc3)CO2)[C@]1(C)O | 33591 (erythromycin methicillin-resistant) | >64 µg/mL
O=C1O[C@@H](COc2ccon2)CN1c1ccc(N2CCOCC2)c(F)c1 | 122 (novobiocin-resistant) | 4 µg/mL
CC(=O)NC[C@H]1CN(c2ccc(-c3cccs3)c(F)c2)C(=O)O1 | UC9213 (methicillin-susceptible) | 0.5 µg/mL
CC[C@H]1OC(=O)[C@H](C)C(=O)[C@H](C)[C@@H](O[C@@H]2O[C@H](C)C[C@H](N(C)C)[C@H]2O)[C@@]2(C)C[C@@H](C)C(=NC(C)=O)[C@H](C)[C@@H](OC/C(=N\OCC#Cc3ccc(N)nc3)CO2)[C@]1(C)O | 27660 (erythromycin-resistant) | 0.13 µg/mL
NCCCCCCNc1cc2c(cc1F)c(=O)c(C(=O)O)cn2-c1ccc(F)cc1F | ATCC 6538P | 3.1 µg/mL
O=C(CCl)NC[C@H]1CN(c2ccc3c(c2)-n2cccc2COC3)C(=O)O1 | ATCC 29213 (MSSA) | 2 µg/mL
CCC(N)CCNc1cc2c(cc1F)c(=O)c(C(=O)O)cn2C1CC1 | ATCC 5278 (methicillin-resistant) | 3.12 µg/mL
CC(C)(Br)C(=O)NC[C@H]1CN(c2ccc3c(c2)-n2cccc2COC3)C(=O)O1 | ATCC 49951 (SMITH) | >32 µg/mL
CC[C@H]1OC(=O)[C@H](C)C(=O)[C@H](C)[C@@H](O[C@@H]2O[C@H](C)C[C@H](N(C)C)[C@H]2O)[C@@]2(C)C[C@@H](C)C(=NC(C)=O)[C@H](C)[C@@H](OC/C(=N\Oc3ccc(-n4cccn4)nc3)CO2)[C@]1(C)O | 25923 (erythromycin-susceptible) | 0.13 µg/mL
Cc1c(NC(C)C)c(F)cc2c(=O)c(C(=O)O)cn(-c3cc(N)c(F)cc3F)c12 | W200 (methicillin-resistant) | 0.008 µg/mL
N#Cc1ccc(N2CCN(c3ccc(N4C[C@H](CNc5ccon5)OC4=O)cc3F)CC2)nn1 | 004 (methicillin quinolone-resistant) | 0.5 µg/mL
CCCCOCCCNc1cc2c(cc1F)c(=O)c(C(=O)O)cn2C1CC1 | ATCC 6538P | >100 µg/mL
CC(=O)NC[C@H]1CN(c2ccc3c(c2)-n2cccc2COC3)C(=O)O1 | ATCC 33591 (MRSA) | 2 µg/mL
CC(=O)NC[C@H]1CN(c2ccc(-c3nsc(C#N)n3)c(F)c2)C(=O)O1 | UC9213 (methicillin-susceptible) | 4 µg/mL
CC(=O)NC[C@H]1CN(c2ccc(NC(=O)c3ccc(C=O)o3)c(F)c2)C(=O)O1 | ATCC 29213 (linezolid-resistant) | >64 µg/mL
CNC(=O)N[C@@H]1CCN(c2ccc(N3C[C@H](CNc4ccon4)OC3=O)cc2F)C1 | 004 (methicillin quinolone-resistant) | 0.5 µg/mL
CC(=O)NC[C@H]1CN(c2ccc(-c3cnn(C(c4ccccc4)(c4ccccc4)c4ccccc4)c3)c(F)c2)C(=O)O1 | UC9213 (methicillin-susceptible) | >32 µg/mL
CC[C@H]1OC(=O)[C@H](C)C(=O)[C@H](C)[C@@H](O[C@@H]2O[C@H](C)C[C@H](N(C)C)[C@H]2O)[C@@]2(C)C[C@@H](C)C(=NC(C)=O)[C@H](C)C(OC/C(=N\OCc3ccccc3)CO2)[C@]1(C)O | 25923 (erythromycin-susceptible) | 0.25 µg/mL

For reference, 3 entries again:

smiles,strain or isolate,result
CC(=O)NC[C@H]1CN(c2ccc(NC(=O)c3ccc(Br)o3)c(F)c2)C(=O)O1,ATCC 29213 (linezolid-resistant),>64 µg/mL
O=C(NC[C@H]1CN(c2ccc3c(c2)-n2cccc2COC3)C(=O)O1)C(Cl)Cl,ATCC 49951 (SMITH),4 µg/mL
C=C1COC2[C@@H](C)C(=O)[C@H](C)C[C@@](C)(OC1)[C@H](O[C@@H]1O[C@H](C)C[C@H](N(C)C)[C@H]1O)[C@@H](C)C(=O)[C@@H](C)C(=O)O[C@H](CC)[C@@]2(C)O,33591 (erythromycin methicillin-resistant),>64 µg/mL